Pooled drug test results. Numbers come from NIAID ChemDB, via PubChem.

Common to all: toxicity to cultured cells; endpoint: CC50

Conditions beyond the fields shown may differ between rows. An empty or dashed field is not shown. CCn is the concentration with n% toxicity to the cells.

structure,method,cells,value
O=C1N(Cc2cccc(COc3ccc(-c4ccc(Cl)cc4)cc3)c2)CCN1c1ccncc1,-,RD,>6.25 µM
C#CCn1c(-c2ccc(-n3cncn3)cc2)nc2c(F)cc(F)cc21,neutral red / absorbance,Vero-C-1008,>50 µg/mL
CC(C)C[C@@H]1NC(=O)[C@H](Cc2c[nH]c3ccccc23)NC(=O)[C@@H](CCCN)NC(=O)[C@H](CC(N)=O)NC(=O)[C@H](C(C)C)NC(=O)[C@@H](Cc2ccc(Cl)cc2)NC1=O,luminescence,Hep2G,60 µM
Cn1c(=O)cc(Sc2ccc(NC(=O)[C@H](Cc3ccccc3)NC(=O)OC(C)(C)C)cc2)c2ccccc21,-,Huh-Luc-Neo,>100 µM
CC(CCC(=O)N[C@@H](Cc1ccc(O)cc1)C(=O)O)C1CCC2C3CCC4C[C@H](O)CCC4(C)C3C[C@H](O)C12C,XTT,VK2/E6E7,238.3 µg/mL
Cc1cn([C@@H]2O[C@H](CO)[C@@H](F)[C@@H]2F)c(=O)nc1N,-,HL-60,234 µM
Fc1cc(F)c2nc(-c3ccc(-n4cncn4)cc3)n(Cc3ccccc3)c2c1,neutral red / absorbance,Vero-C-1008,>50 µg/mL
Cn1c(=O)cc(Sc2ccc(NC(=O)[C@H](Cc3ccc(F)cc3)NC(=O)OC(C)(C)C)cc2)c2ccccc21,-,Huh-Luc-Neo,>100 µM
COC(=O)c1cn(-c2ccnc3cc(Cl)ccc23)nn1,MTT,BGM,≥694 µM
CC[C@H]1CN2CCc3cc(OC)c(OC)cc3[C@@H]2C[C@@H]1C[C@H]1NCCc2cc(OC)c(OC)cc21,MTT,L6,0.04 µM
CC(C)(C)C(=O)Nc1ccc(NS(=O)(=O)c2cccc3ccccc23)cc1,-,Human embryonic lung fibroblasts,48.9 µM
Cc1cn([C@@H]2O[C@H](COC(c3ccccc3)(c3ccccc3)c3ccccc3)[C@@H](OS(C)(=O)=O)[C@@H]2F)c(=O)[nH]c1=O,-,HL-60,>1000 µM
C/C(=N\NC(=O)c1ccccc1)c1cccc(/C(C)=N/NC(=O)c2ccccc2)n1,MTT,HL-60,0.98 µM
Cc1cn([C@@H]2O[C@H](COC(c3ccccc3)(c3ccccc3)c3ccccc3)[C@@H](N=[N+]=[N-])[C@@H]2O)c(=O)[nH]c1=O,-,HL-60,>1000 µM
OCc1cn(-c2ccnc3cc(Cl)ccc23)nn1,MTT,BGM,≥777 µM
O=C1N(CCOCCOc2ccc(-c3ccc(Cl)cc3)cc2)CCN1c1ccncc1,-,RD,>25 µM
CC(C)C[C@H]1NC(=O)[C@@H](Cc2ccc(Cl)cc2)NC(=O)[C@H](Cc2c[nH]c3ccccc23)NC(=O)[C@@H](CCCN)NC(=O)[C@H](CC(N)=O)NC(=O)[C@H](C(C)C)NC1=O,luminescence,Hep2G,>100 µM
NC(=S)c1nnn(Cc2ccccc2)c1N,MTT,Vero cell,26 µM
CCC1(Cc2ccccc2)OS(=O)(=O)C=C1OCCc1ccccc1,-,HEL fibroblasts,48 µM
COc1ccc2nc3cc(Cl)ccc3c(NCCNC(=O)[C@@H](N)Cc3cnc[nH]3)c2c1,MTS,KB cells,3.94 µM
CC(C)(C(=O)O)C(=O)Nc1ccc(NS(=O)(=O)c2cccc3c(N)cccc23)cc1,-,Human embryonic lung fibroblasts,>250 µM
CC(C)(CCCOc1ccc(-c2ccc(Cl)cc2)cc1)CN1CCN(c2ccncc2)C1=O,-,RD,20 µM
COc1ccc2nc3cc(Cl)ccc3c(NCCCCCCNC(=O)[C@@H]3CCCN3)c2c1,MTS,KB cells,0.443 µM
O=C(Nc1ccccc1)c1c(O)c2cccnc2n(O)c1=O,-,HeLa,<100 µM
Cc1cn([C@@H]2O[C@H](COC(c3ccccc3)(c3ccccc3)c3ccccc3)C[C@H]2F)c(=O)[nH]c1=O,-,HL-60,>1000 µM
CCC(CCOc1ccc(-c2ccc(Cl)cc2)cc1)CCN1CCN(c2ccncc2)C1=O,-,RD,>25 µM
CC(=O)Nc1ccc(Sc2cc(=O)n(C)c3ccccc23)cc1,-,Huh-Luc-Neo,>100 µM
CC(CCCCOc1ccc(-c2ccc(Cl)cc2)cc1)N1CCN(c2ccncc2)C1=O,-,RD,12.5 µM
CCC1(Cc2ccccc2)OS(=O)(=O)C=C1OS(=O)(=O)c1ccc(C)cc1,-,HEL fibroblasts,109 µM
CC(C)(CCOc1ccc(-c2ccc(Cl)cc2)cc1)CCN1CCN(c2ccncc2)C1=O,-,RD,>25 µM
N=C(N)c1cccc2c1CC/C2=N\N=C(N)N,resazurin,PM1,>0.4 µM
CC(C)=CC1CC([C@@H]2CC[C@]3(C)C4CC[C@H]5C(C)(C)[C@@H](O)CC[C@]5(C)[C@H]4CC[C@@]23C)CO1,MTT,L6 cells,14.7 µM
Clc1ccc2c(-n3cc(COC4CCCCO4)nn3)ccnc2c1,MTT,BGM,≥581 µM
N#CCn1c(-c2ccc(-n3cncn3)cc2)nc2c(F)cc(F)cc21,neutral red / absorbance,Vero-C-1008,>50 µg/mL
O=Cc1cn(-c2ccnc3cc(Cl)ccc23)nn1,MTT,BGM,477 µM
CNC[C@@H](Cc1ccccc1)NC[C@@H](Cc1ccc2ccccc2c1)NCC1(c2ccccc2)CC1,-,KB cells,1.43 µg/mL
N[C@@H](Cc1cnc[nH]1)C(=O)NCCCCNc1c2ccccc2nc2ccccc12,MTS,KB cells,4.85 µM
CNC(=O)c1c(N)c2cccnc2n(O)c1=O,-,HeLa,<100 µM
COc1ccc2nc3cc(Cl)ccc3c(NCCCCN3CCNCC3)c2c1,MTS,KB cells,0.125 µM
Cc1c[nH]c2c1C(c1ccc(O)c(O)c1)C(C#N)=C(N)O2,-,HOS,49 µM
CC(C)C[C@@H]1NC(=O)[C@H](C)NC(=O)[C@@H](CCCN)NC(=O)[C@H](CC(N)=O)NC(=O)[C@H](C(C)C)NC(=O)[C@@H](CC(C)C)NC1=O,luminescence,Hep2G,>100 µM
CN(C)c1cccc2c(S(=O)(=O)Nc3ccc(NC(=O)C(C)(C)C)cc3)cccc12,-,Mouse fibroblast cell lines,33.3 µM
CC(=O)OC[C@H]1O[C@@H](n2cc(C)c(=O)[nH]c2=O)C[C@@H]1F,-,HL-60,>1000 µM
CC[C@@H](C)[C@@H]1NC(=O)[C@H]([C@H](C)CC)NC(=O)[C@@H](CC(C)C)NC(=O)[C@H](CC(C)C)NC(=O)[C@H](Cc2c[nH]c3ccccc23)NC(=O)[C@@H](CCCN)NC1=O,luminescence,Hep2G,>100 µM
O=C(CSc1ncccc1C(=O)O)c1ccc(O)c(O)c1,-,HOS,59 µM
C=C(C)C1CC[C@]2(C(=O)O)CC[C@@]3(C)[C@]4(C)CC[C@H]5C(C)(C)[C@@H](OC(C)=O)CC[C@]5(C)[C@H]4CC[C@]3(C)[C@@H]12,MTT,L6 cells,5.2 µM
CN(C)c1cccc2c(S(=O)(=O)Nc3ccc(NC(=O)C(C)(C)CF)cc3)cccc12,-,Human embryonic lung fibroblasts,56 µM
Cc1ccccc1Cn1c(-c2ccc(-n3cncn3)cc2)nc2c(F)cc(F)cc21,neutral red / absorbance,Vero-C-1008,>50 µg/mL
CN(C)c1cccc2c(S(=O)(=O)Nc3ccc(NC(=O)C(C)(C)CCl)cc3)cccc12,-,Human embryonic lung fibroblasts,31.3 µM
COCCOCC(=O)Nc1ccc(Sc2cc(=O)n(C)c3ccccc23)cc1,-,Huh-Luc-Neo,>100 µM
NCc1cccc(-c2cccc(-c3cc(=O)n(O)c4ncccc34)c2)c1,-,HeLa,<100 µM
Cc1cn([C@@H]2O[C@H](CO)[C@@H](F)[C@H]2N=[N+]=[N-])c(=O)[nH]c1=O,-,HL-60,>1000 µM
CCCC(CCOc1ccc(-c2ccc(Cl)cc2)cc1)CCN1CCN(c2ccncc2)C1=O,-,RD,>25 µM
Fc1ccc(Cn2c(-c3ccc(-n4cncn4)cc3)nc3c(F)cc(F)cc32)cc1,neutral red / absorbance,Vero-C-1008,>50 µg/mL
Cc1cn([C@H]2C[C@H](F)[C@@H](COS(C)(=O)=O)O2)c(=O)[nH]c1=O,-,HL-60,>1000 µM
O=C(Cc1cccs1)Nc1ccc(C(=O)/C=C/c2ccc(O)c(O)c2)cc1,-,CEM-GFP,44.6 µM
CCOC(=O)c1c(O)c2cc(-c3cccc(OC)c3)cnc2n(O)c1=O,-,HeLa,<100 µM
CCCCC(=O)OC1CC(OC(C)C(C)C(O)C(C)C(O)C(C)C2OC(=O)/C=C/CC(O)CC(O)CC(O)CCC(C)C(O)C[C@@]3(O)O[C@H](CC(O)CC(OC(=O)CC(=O)O)CCCC(O)C4OC4C2C)C[C@H](O)[C@H]3O)OC(C)C1O,-,HEK-297,>100 µg/mL
CCC1(Cc2ccccc2)OS(=O)(=O)C=C1OC,-,HEL fibroblasts,>200 µM
Cc1cn2c(nc1=O)OC1[C@H]2O[C@H](COC(c2ccccc2)(c2ccccc2)c2ccccc2)[C@H]1O,-,HL-60,>1000 µM
CCC1(Cc2ccccc2)OS(=O)(=O)C=C1OCc1ccc(Br)cc1,-,HEL fibroblasts,171 µM
COc1ccc2nc3cc(Cl)ccc3c(NCCCCCCN)c2c1,MTS,KB cells,7 µM
CN(C)c1cccc2c(S(=O)(=O)Nc3ccc(NC(=O)C(C)(C)C=O)cc3)cccc12,-,Human embryonic lung fibroblasts,79 µM
O=c1cc(N2CCC[C@@H]2CF)c2cccnc2n1O,-,HeLa,<100 µM
COc1ccc2nc3cc(Cl)ccc3c(NCCN3CCNCC3)c2c1,MTS,KB cells,0.165 µM

7 of the rows above, restated:

C/C(=N\NC(=O)c1ccccc1)c1cccc(/C(C)=N/NC(=O)c2ccccc2)n1 ; method: MTT ; cells: HL-60 ; value: 0.98 µM
NC(=S)c1nnn(Cc2ccccc2)c1N ; method: MTT ; cells: Vero cell ; value: 26 µM
CC[C@@H](C)[C@@H]1NC(=O)[C@H]([C@H](C)CC)NC(=O)[C@@H](CC(C)C)NC(=O)[C@H](CC(C)C)NC(=O)[C@H](Cc2c[nH]c3ccccc23)NC(=O)[C@@H](CCCN)NC1=O ; method: luminescence ; cells: Hep2G ; value: >100 µM
CN(C)c1cccc2c(S(=O)(=O)Nc3ccc(NC(=O)C(C)(C)CF)cc3)cccc12 ; cells: Human embryonic lung fibroblasts ; value: 56 µM
C#CCn1c(-c2ccc(-n3cncn3)cc2)nc2c(F)cc(F)cc21 ; method: neutral red / absorbance ; cells: Vero-C-1008 ; value: >50 µg/mL
CCCCC(=O)OC1CC(OC(C)C(C)C(O)C(C)C(O)C(C)C2OC(=O)/C=C/CC(O)CC(O)CC(O)CCC(C)C(O)C[C@@]3(O)O[C@H](CC(O)CC(OC(=O)CC(=O)O)CCCC(O)C4OC4C2C)C[C@H](O)[C@H]3O)OC(C)C1O ; cells: HEK-297 ; value: >100 µg/mL
CC(C)C[C@@H]1NC(=O)[C@H](C)NC(=O)[C@@H](CCCN)NC(=O)[C@H](CC(N)=O)NC(=O)[C@H](C(C)C)NC(=O)[C@@H](CC(C)C)NC1=O ; method: luminescence ; cells: Hep2G ; value: >100 µM